The subject of assay [1] is Escherichia coli. As to the kind of experiment: Antibacterial activity against Escherichia coli ATCC 25922 expressing qnrS gene and pBK-QnrS1 assessed as reduction of viable bacteria at 4 time MIC after 24 hrs. Format: functional, organism-based.
For assay [2], the system named is Escherichia coli. As to the kind of experiment: Antibacterial activity against Escherichia coli ATCC 25922 expressing qnrA gene and pBK-QnrA1 assessed as reduction of viable bacteria at 4 time MIC after 24 hrs. The format is functional, organism-based.

Activity calls are given as the source filed them. No cut-off for these calls is given here.

Regarding `O=C(O)c1cn(C2CC2)c2cc(N3CCNCC3)c(F)cc2c1=O` [CIPROFLOXACIN], the outcome in the assay with Escherichia coli [1] and with Escherichia coli [2] was inactive.

For the origin of these results see ChEMBL document CHEMBL1687848, “In vitro effect of qnrA1, qnrB1, and qnrS1 genes on fluoroquinolone activity against isogenic Escherichia coli isolates with mutations in gyrA and parC” (2011).
